Biological target: SARS-CoV1

Question: ACE2 (from UniProt Q9BYF1) (receptor) was tested. Which Kd did it give?
Answer: Its Kd is 0.0235 nM.

Question: And the koff?
Answer: The koff was 0.000232 s⁻¹.

Question: And the kon?
Answer: Its kon is 9.89e+06 M⁻¹ s⁻¹.
